Common to all, as to assay: fold change of IC50 against reference virus; higher = more resistant
Compound in one assay: O=C1Nc2ccc(Cl)cc2[C@@](C#CC2CC2)(C(F)(F)F)O1 [efavirenz]
As for the experimental part: (§1)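 Cell-culture drug susceptibility tests of virus bearing the reverse transcriptase of each isolate, gathered from many studies.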

Compound in the next assay: Cc1cn([C@H]2C[C@H](N=[N+]=[N-])[C@@H](CO)O2)c(=O)[nH]c1=O [zidovudine]
The procedure: as §1

Compound in a further assay: Nc1nc(NC2CC2)c2ncn([C@H]3C=C[C@@H](CO)C3)c2n1 [abacavir]
As for the experimental part: as §1

Compound in a further assay: Cc1cn([C@H]2C=C[C@@H](CO)O2)c(=O)[nH]c1=O [stavudine]
The procedure: as §1

Compound in a further assay: O=c1[nH]cnc2c1ncn2[C@H]1CC[C@@H](CO)O1 [didanosine]
As for the experimental part: as §1

Compound in a further assay: Cc1ccnc2c1NC(=O)c1cccnc1N2C1CC1 [nevirapine]
The procedure:
as §1

Compound in another assay: Nc1ccn([C@H]2CC[C@@H](CO)O2)c(=O)n1 [zalcitabine]
As for the experimental part:
as §1

Compound in the next assay: CC(C)Nc1cccnc1N1CCN(C(=O)c2cc3cc(NS(C)(=O)=O)ccc3[nH]2)CC1 [delavirdine]
As for the experimental part:
as §1

The record followed here is the supplement of paper PMC3578754.

Fold change is the IC50 on the isolate divided by the IC50 on a reference virus; 1 = unchanged, higher = more resistant. Changes are given against the subtype B consensus. No active / inactive call. The values were gathered from many studies (numbered anew) with different assays, which the source does not name. Most viruses are clinical isolates; some are laboratory strains or clones with known resistance changes. Isolates with mixed residues are left out; stretches that were not sequenced show no change. Round top values that many isolates share are read here as limits; other very high values and 0.1 may be limits too.

Turning to “HIV-1 isolate 863 (reverse transcriptase changes: K70R D177N I178L Q197E R211K V245T D250E T286A I293V, study 119)”, the “fold change of IC50 against reference virus” value (“fold change of IC50” for short) with efavirenz was 1.5; in the assay with zidovudine, 5.3; with abacavir, 1.1; with stavudine, 1.3; with didanosine, 1.2; with nevirapine, 3.4. The “fold change of IC50” value in the assay with zalcitabine is 0.9; with delavirdine, 3.5.

With “HIV-1 isolate 1255 (reverse transcriptase changes: M41L A98S M184V R211K T215F, study 28)”, the “fold change of IC50” value came out at 0.4 with efavirenz; 3.9 in the assay with zidovudine; 6.1 with abacavir; 1.4 in the assay with stavudine; 1.3 with didanosine; 0.9 with nevirapine. For the same test system, the “fold change of IC50” value in the assay with zalcitabine is 1.8; with delavirdine, 0.4.

Consider “HIV-1 isolate 30 (reverse transcriptase changes: D121H K122E S162C D177E M184V R211K, study 28)”, for which the “fold change of IC50” value is 0.5 in the assay with efavirenz; 0.4 in the assay with zidovudine; 3.6 with abacavir; 0.7 with stavudine; 1.4 with didanosine; 0.4 with nevirapine. Also, the results for the “fold change of IC50” value with zalcitabine and in the assay with delavirdine were 2.1 and 0.8, respectively.

Consider “HIV-1 isolate 171 (reverse transcriptase changes: M41L D67N K70R K102Q S162C M184V T215Y K219Q K277R, study 110)”, for which the “fold change of IC50” value worked out at 0.3 with efavirenz; 4.8 in the assay with zidovudine; 3.4 in the assay with abacavir; 1.4 with stavudine; 1.4 in the assay with didanosine; 0.3 with nevirapine. Moreover, the figures for the “fold change of IC50” value with zalcitabine and with delavirdine were 1.8 and 0.4, respectively.

As to “HIV-1 isolate 1294 (reverse transcriptase changes: M41L V60I I135V S162C G196E T215Y T286A I293V E297K S322A D324E F346Y M357T R358K G359S K366R A400T, study 54)”, the “fold change of IC50” value in the assay with efavirenz amounted to 0.2; with abacavir, 1.7; in the assay with stavudine, 2.1; in the assay with didanosine, 1.2; with nevirapine it was 0.1; with zalcitabine, 1.2. Besides, the “fold change of IC50” value with delavirdine is 0.1.

Turning to “HIV-1 isolate 945 (reverse transcriptase changes: M41L L74V A98G M184V T215Y, study 110)”, the “fold change of IC50” value was 1.1 in the assay with stavudine; 1.8 in the assay with didanosine; 4.7 in the assay with nevirapine; 2 with zalcitabine; 1.4 with delavirdine.

As to “HIV-1 isolate 1110 (reverse transcriptase changes: M41L D67N M184V L210W T215Y, study 110)”, the “fold change of IC50” value worked out at 21.4 with zidovudine; 2.8 in the assay with stavudine; 1.5 in the assay with didanosine; 0.2 with nevirapine; 0.7 in the assay with zalcitabine; 0.2 with delavirdine.

Consider “HIV-1 isolate 1124 (reverse transcriptase changes: K65R L74V K122E F214L A272P K277R A376T A400T D460N S468T H483Y K512Q S519N, study 144)”, for which the “fold change of IC50” value in the assay with zidovudine turned out to be 1; with abacavir it was 3.6; with stavudine, 1; with didanosine, 4; in the assay with zalcitabine, 4.

Regarding “HIV-1 isolate 243 (reverse transcriptase changes: L74V K122E K173R Q174K I178M M184V Q207E A272P T286A, study 129)”, the “fold change of IC50” value with abacavir came to 5; in the assay with zalcitabine, 2.

As to “HIV-1 isolate 1257 (reverse transcriptase changes: K65R K122E M184V F214L A272P K277R A376T A400T D460N S468T H483Y K512Q S519N, study 144)”, the “fold change of IC50” value is 1 with zidovudine; 6.9 with abacavir; 1 with stavudine; 5 with didanosine; 8 in the assay with zalcitabine.

For “HIV-1 isolate 1287 (reverse transcriptase changes: L74V Y115F K122E F214L A272P K277R A376T A400T D460N S468T H483Y K512Q S519N, study 144)”, the “fold change of IC50” value in the assay with zidovudine stood at 3; in the assay with abacavir, 4; in the assay with stavudine, 1; with didanosine, 4; with zalcitabine, 2.

For the test system “HIV-1 isolate 19 (reverse transcriptase changes: K102Q S162C M184I K277R, study 110)”, the “fold change of IC50” value was 0.3 with zidovudine; 3.1 in the assay with abacavir; 0.8 with stavudine; 1.2 with didanosine; 1.5 in the assay with zalcitabine.

Consider “HIV-1 isolate 832 (reverse transcriptase changes: K65R L74V K122E M184V F214L A272P K277R A376T A400T D460N S468T H483Y K512Q S519N, study 144)”, for which the “fold change of IC50” value in the assay with zidovudine was 1; with abacavir it was 10; in the assay with stavudine, 1; in the assay with didanosine, 6; with zalcitabine it was 7.

As to “HIV-1 isolate 569 (reverse transcriptase changes: M41L L74V K103N D123E Q174K Y181C M184V T200A R211T T215Y V245M A272P I293V E297K, study 119)”, the “fold change of IC50” value with efavirenz was determined as 9.5; in the assay with abacavir, 6.3; with stavudine, 1.3; with didanosine it was 1.7; with nevirapine it was 9.6; with zalcitabine it was 1.7. In the assay with delavirdine, the “fold change of IC50” value was determined as 1.5.

On to “HIV-1 isolate 519 (reverse transcriptase changes: Y115F K122E F214L A272P K277R A376T A400T D460N S468T H483Y K512Q S519N, study 144)”, for which the “fold change of IC50” value with zidovudine came out at 2; with abacavir, 2.1; with stavudine it was 1; in the assay with didanosine, 1; with zalcitabine, 1.

In the case of “HIV-1 isolate 59 (reverse transcriptase changes: D67N K219Q, study 110)”, the “fold change of IC50” value was determined as 3.3 with zidovudine; 0.7 with stavudine; 1 with didanosine; 0.4 in the assay with nevirapine; 0.7 with zalcitabine; 0.6 with delavirdine.

In the case of “HIV-1 isolate 1004 (reverse transcriptase changes: K20R K122E I142V T165I M184V K277R A288S I293V, study 119)”, the “fold change of IC50” value in the assay with zidovudine came out at 0.9; with abacavir, 3.5; with stavudine, 0.6; with didanosine, 1.6; in the assay with nevirapine it was 0.7; with zalcitabine it was 0.9. In the assay with delavirdine, the “fold change of IC50” value is 0.3.
